Compound potency records, mixed from different reports. Data source: NIAID ChemDB in PubChem.

All rows: growth or infection tests; organism: HIV-1; read-out: EC50

ECn is the concentration giving n% inhibition of infection, replication or growth. Neighbouring rows are from separate reports. Blank or dashed fields: not listed here.

compound | strain | mutations | cells | read by | setting | value
O=C(N/N=C/c1ccc(O)cc1)Nc1cccc2nsnc12 |  |  | Cf2Th-CD4/CXCR4 | luciferase | pseudotyped | 6.9 µM
Cc1cc(S(N)(=O)=O)ccc1NC(=O)COc1ccccc1C(=O)c1cc(Cl)cc(C#N)c1 |  | RT-K103N P225H | HeLa MAGI + HeLa | β-galactosidase |  | <0.005 µM
CN1CCN(c2cc(-c3ccccc3)nc3ccccc23)CC1 | LAV |  | PHA-PBMC + PBMC | p24 |  | 34.8 µM
CC(C)=CCOc1cc(NC(=S)c2ccoc2C)ccc1Cl | IIIB |  | CEM + CEM-SS | cytopathic effect / XTT |  | 0.009 µM
Cc1ccc(NC(=O)NCCSCc2ccc(CNC(C)C)o2)cc1Cl |  |  | U1 |  |  | <75 µM
Cc1cn([C@@H]2C[C@@H](O)[C@@](CO)(N=[N+]=[N-])O2)c(=O)[nH]c1=O | LAV |  | A3.01 |  |  | >200 µM
CCCCCCCCCC[N+](C)(C)CCCNCc1c(O)cc2c(c1O)-c1cc(ccc1O)[C@H]1NC(=O)[C@@H]3NC(=O)C4NC(=O)[C@@H](Cc5ccc(c(Cl)c5)Oc5cc3cc(c5O)Oc3ccc(cc3Cl)[C@@H](O)[C@H](NC1=O)C(=O)N[C@@H]2C(=O)O)NC(=O)[C@H](N)c1ccc(O)c(c1)Oc1cc(O)cc4c1 | HE |  | MOLT-4/C8 + MOLT-4 | syncytia |  | 3.7 µM
CC(C)C1=C2[C@H]3CC[C@@H]4[C@@]5(C)CC[C@H](OC(=O)[C@H]6C[C@@H](C(=O)O)C6(C)C)C(C)(C)[C@@H]5CC[C@@]4(C)[C@]3(C)CC[C@@]2(CC(=O)NCC(F)(CN)NC(=O)c2ccc(Cl)cc2)CC1=O | 92HT599 |  | MT-2 | p24 / ELISA |  | <1 µM
O=C(NCc1c(F)cncc1F)C1=CN2C[C@H]3O[C@@H]4CC[C@@H](C4)N3C(=O)C2C(=O)C1=O | IIIB |  | CEM-SS | XTT |  | 0.0637 µM
O=C(NCc1ccc(F)cc1F)c1c(O)c2cccnc2n(O)c1=O |  | G118R | HOS | luciferase | pseudotyped | 107.4 µM
CC(C)C1=C2[C@H]3CC[C@@H]4[C@@]5(C)CC[C@H](OC(=O)[C@H]6C[C@@H](C(=O)O)C6(C)C)C(C)(C)[C@@H]5CC[C@@]4(C)[C@]3(C)CC[C@@]2([C@@H](O)CNCc2ccccn2)CC1=O | 92HT599 |  | MT-2 | p24 / ELISA |  | <1 µM
CCN(CC)C(=S)N=Nc1c(O)n(C)c2ccccc12 |  |  | H9/HIV-1 + H9 | RT activity | chronic infection | 0.3 µg/mL
Cc1cn([C@H]2CC[C@](CO)(N=[N+]=[N-])O2)c(=O)[nH]c1=O | LAV |  | A3.01 | RT activity |  | >200 µM
CC(C)=CCOc1cc(NC(=S)c2ccsc2C)ccc1Cl | NL4-3 (RT M184V) | RT-M184V | CEM + CEM-SS | cytopathic effect / XTT |  | 0.01 µM
CC(C)C1=C2[C@H]3CC[C@@H]4[C@@]5(C)CC[C@H](OC(=O)[C@H]6C[C@@H](C(=O)O)C6(C)C)C(C)(C)[C@@H]5CC[C@@]4(C)[C@]3(C)CC[C@@]2([C@@H](O)CNC(=O)C(C)(C)NC(=O)c2cccnc2)CC1=O | 92HT599 |  | MT-2 | p24 / ELISA |  | <1 µM
Nc1nccc2c1ncn2[C@@H]1C=C(CO)[C@@H](O)[C@H]1O | A018 PRE-AZT |  | PBMC | p24 |  | 0.0161 µM
CC(C)C1=C2[C@H]3CC[C@@H]4[C@@]5(C)CC[C@H](OC(=O)[C@H]6C[C@@H](C(=O)O)C6(C)C)C(C)(C)[C@@H]5CC[C@@]4(C)[C@]3(C)CC[C@@]2([C@@H](O)CNC(=O)[C@H]2CCCCN2)CC1=O | 92HT599 |  | MT-2 | p24 / ELISA |  | <1 µM
CC1=C(C(=O)OCc2ccccc2)C(/C=C/c2ccccc2)NC(=O)N1 |  |  | HEK293T | p24 / ELISA |  | >100 µM
CCCCCCCCCC(O)CC(=O)O |  |  | HeLa37 | antigen |  | 27.6 µg/mL
Cc1cn([C@H]2C=C[C@@H](CO)O2)c(=O)[nH]c1=O |  |  | CEM + CEM/O | cytopathic effect |  | 0.2 µM
Nc1ccn([C@H]2CC[C@@H](CO)O2)c(=O)n1 | LAI |  | Macrophage + Macrophages | RT activity |  | <1 µM
Cc1noc(C)c1CNCC[C@@]12CC[C@]3(C)[C@H](CC[C@@H]4[C@@]5(C)CC[C@H](OC(=O)[C@H]6C[C@@H](C(=O)O)C6(C)C)C(C)(C)[C@@H]5CC[C@]43C)C1=C(C(C)C)C(=O)C2 | 92HT599 |  | MT-2 | p24 / ELISA |  | <1 µM
C[C@@H]1CO[C@@]23CCC[C@@H]2N2C=C(C(=O)NCc4c(F)cc(F)nc4F)C(=O)C(=O)C2C(=O)N13 | IIIB |  | CEM-SS | XTT |  | 0.0667 µM
CC(C)C1=C2[C@H]3CC[C@@H]4[C@@]5(C)CC[C@H](OC(=O)[C@H]6C[C@@H](C(=O)O)C6(C)C)C(C)(C)[C@@H]5CC[C@@]4(C)[C@]3(C)CC[C@@]2([C@@H](O)CNCc2ccc(Cl)cc2OCCN2CCOCC2)CC1=O | 92HT599 |  | MT-2 | p24 / ELISA |  | <1 µM
Cc1ccnc2c1NC(=O)c1cccnc1N2C1CC1 | A17 | Y181C | TZM-bl | p24 / ELISA |  | >10 µM
C[C@H]1CO[C@@H]2CN3C=C(C(=O)NCc4cnc5ncccn45)C(=O)C(=O)C3C(=O)N12 | IIIB |  | CEM-SS | XTT |  | 0.0203 µM
CC(C)C1=C2[C@H]3CC[C@@H]4[C@@]5(C)CC[C@H](OC(=O)[C@H]6C[C@@H](C(=O)O)C6(C)C)C(C)(C)[C@@H]5CC[C@@]4(C)[C@]3(C)CC[C@@]2(CCN(CCN(C)C)Cc2ccccc2Cl)CC1=O | 92HT599 |  | MT-2 | p24 / ELISA |  | <1 µM
C[C@H]1CO[C@@H]2Cn3cc(C(=O)NCc4ccc(F)cc4F)c(=O)c(O)c3C(=O)N12 | NL4-3 |  | CEM-GXR | GFP |  | 0.0007 µM
C[C@H]1CO[C@@H]2CN3C=C(C(=O)NCc4cnccn4)C(=O)C(=O)C3C(=O)N12 | IIIB |  | CEM-SS | XTT |  | 0.0284 µM
Nc1ncnc2c1ncn2[C@@H]1C=C(CO)[C@@H](O)[C@H]1O | A012 POST-AZT |  | PBMC | p24 |  | 0.0028 µM
CC(C)C1=C2[C@H]3CC[C@@H]4[C@@]5(C)CC[C@H](OC(=O)[C@H]6C[C@@H](C(=O)O)C6(C)C)C(C)(C)[C@@H]5CC[C@@]4(C)[C@]3(C)CC[C@@]2([C@@H](O)CNC(=O)C(C)(C)NC(=O)c2ncc[nH]2)CC1=O | 92HT599 |  | MT-2 | p24 / ELISA |  | <1 µM
CC1=C(C(=O)OCc2ccccc2)C(c2ccccc2O)NC(=O)N1 |  |  | HEK293T | p24 / ELISA |  | >100 µM
Cc1nnc(C(=O)NC(C)(C)c2nc(C(=O)NCc3ccc(F)cc3)c(O)c(=O)n2C)o1 | NL4-3 |  | CEM-GXR | GFP |  | 0.005 µM
[N-]=[N+]=N[C@]1(CO)O[C@@H](n2ccc(N)nc2=O)[C@H](O)[C@@H]1O | LAV |  | A3.01 |  |  | >8.2 µM
O=C(NCc1ccc(F)nc1F)C1=CN2C[C@H]3O[C@@H]4CC[C@@H](C4)N3C(=O)C2C(=O)C1=O | IIIB |  | CEM-SS | XTT |  | 0.0562 µM
CC(C)C1=C2[C@H]3CC[C@@H]4[C@@]5(C)CC[C@H](OC(=O)[C@H]6C[C@@H](C(=O)O)C6(C)C)C(C)(C)[C@@H]5CC[C@@]4(C)[C@]3(C)CC[C@@]2(CCN[C@@H](C)c2ccccc2)CC1=O | 92HT599 |  | MT-2 | p24 / ELISA |  | <1 µM
Cc1cn([C@H]2C=C[C@@H](COC(=O)CC3(C)C[C@](C)(O)CO3)O2)c(=O)[nH]c1=O |  |  | JM | cytopathic effect |  | 40 µM

A second listing of 3 rows from above:

compound,strain,mutations,cells,read by,setting,value
CCCCCCCCCC(O)CC(=O)O,,,HeLa37,antigen,,27.6 µg/mL
CC1=C(C(=O)OCc2ccccc2)C(/C=C/c2ccccc2)NC(=O)N1,,,HEK293T,p24 / ELISA,,>100 µM
CCN(CC)C(=S)N=Nc1c(O)n(C)c2ccccc12,,,H9/HIV-1 + H9,RT activity,chronic infection,0.3 µg/mL